According to publication PMC5125695, “Antiviral Efficacy of Verdinexor In Vivo in Two Animal Models of Influenza A Virus Infection” (PLoS ONE, 2016):

System: Influenza A/WSN/33
Experiment: In vitro drug resistance by serial passage in A549 cells
Format: cell-based
Conditions: passaged with 0.2 μM verdinexor, DMSO pre-treated test cells

## O=C(/C=C\n1cnc(-c2cc(C(F)(F)F)cc(C(F)(F)F)c2)n1)NNc1ccccn1 [verdinexor]
  Viral growth and/or fitness of virus passaged in the presence of verdinexor: apparent overall reduction of viral growth and/or fitness
